Results of unrelated studies side by side (data: NIAID ChemDB).

All rows: tests in culture; species: Candida albicans; endpoint: Mean MIC

Lines come from different laboratories, so protocols vary. An empty or dashed field is not shown.

compound | strain | value
Cc1c(C(=O)O)c(-c2ccc(Br)cc2)cn1-c1ccc(Br)cc1 | 40 strains | 12.29 µg/mL
O=[N+]([O-])c1cccc(Cn2ccnc2)c1 | 27 strains | 96.42 µg/mL
Clc1ccccc1COc1ccc(C(c2ccc3ccccc3c2)n2ccnc2)cc1.O=[N+]([O-])O | 16 strains | ≥256 µg/mL
O=[N+]([O-])c1ccc(C=Nc2cccc(Cn3ccnc3)c2)cc1 | 27 strains | 90.97 µg/mL
C[C@@H](c1ncncc1F)[C@](O)(Cn1cncn1)c1ccc(F)cc1F | 100 isolates | 0.12 µg/mL
CCN1CCC(O)(/C=C/c2ccc(Cl)c(Cl)c2)C(C(=O)/C=C/c2ccc(Cl)c(Cl)c2)C1 | 10 strains | 25 µM
Cn1cc(-c2ccccc2)c(C(c2cccc3ccccc23)n2ccnc2)c1 | 33 strains | 20.33 µg/mL
CC(=O)Nc1ccc(C=Nc2cccc(Cn3ccnc3)c2)cc1 | 27 strains | 165 µg/mL
CCC(C)c1cc2cc3c(c(O)c2c(=O)n1C)-c1c(O)c2c(c(OC)c1CC3)O[C@H]1[C@@H](C2=O)[C@@H](O)C=C[C@H]1O | - | 0.017 µg/mL
CC(=O)N1CCN(c2ccc(OCC3COC(Cn4ccnc4)(c4ccc(-c5ccccc5)cc4)O3)cc2)CC1 | 44 strains | 29.7 µg/mL
Cc1c(CN(C)C)cc(-c2ccc(Cl)cc2)n1-c1ccccc1 | 20 strains | 38.4 µg/mL
c1ccc(-c2c[nH]cc2C(c2ccsc2)n2ccnc2)cc1 | 33 strains | >256 µg/mL
CCC(C)CC(C)CCCCCCCCC(=O)N[C@H]1C[C@@H](O)[C@H](NCCN)NC(=O)[C@@H]2[C@@H](O)CCN2C(=O)[C@H]([C@H](O)CCN)NC(=O)[C@H]([C@H](O)[C@@H](O)c2ccc(O)cc2)NC(=O)[C@@H]2C[C@@H](O)CN2C(=O)[C@H]([C@@H](C)O)NC1=O | 40 isolates | 0.37 µg/mL
c1ccc(-c2c[nH]cc2C(c2ccc3ccccc3c2)n2ccnc2)cc1 | 33 strains | 12.49 µg/mL
COc1cc(C(=O)Nc2ccccc2Cn2ccnc2)cc(OC)c1OC | 27 strains | 71.9 µg/mL
c1ccc(C(c2nccc3ccccc23)n2ccnc2)cc1 | 44 strains | 76 µg/mL
Cc1c(CN(C)C)cc(-c2ccccc2)n1-c1ccc(Cl)cc1Cl | 20 strains | 16.3 µg/mL
Clc1ccc(COc2ccc(C(c3ccc4ccccc4c3)n3ccnc3)cc2)cc1.O=[N+]([O-])O | 17 strains | ≥256 µg/mL
Clc1ccc(C(c2cccc3ccccc23)n2ccnc2)cc1 | 23 strains | 2.64 µg/mL
CCN1CCC(O)(/C=C/c2ccc(OC)cc2)C(C(=O)/C=C/c2ccc(OC)cc2)C1 | 10 strains | 100 µM
CS(=O)(=O)OCC1COC(Cn2ccnc2)(c2ccc(-c3ccccc3)cc2)O1 | 44 strains | 110.4 µg/mL
Clc1ccc(C(c2c[nH]cc2-c2ccccc2)n2ccnc2)s1 | 33 strains | >256 µg/mL
Clc1ccc(C(c2ccc3ccccc3c2)n2ccnc2)s1 | 23 strains | 2.4 µg/mL
CCC1CCCC(CC)C(=O)NCCCC(CC)C(OC2OC(C)C(O)C(N)C2OC2OC(CO)C(O)C(O)C2O)CC1 | 12 strains | 32 µg/mL
Cc1ccc(-n2cc(-c3ccc(Br)cc3)c(C(=O)O)c2C)cc1 | 40 strains | 47.92 µg/mL
Clc1ccc(C(Cn2ccnc2)OCc2csc3c(Cl)cccc23)c(Cl)c1 | 10 strains | 4.64 µg/mL
c1csc(C(c2cccc3ccccc23)n2ccnc2)c1 | 23 strains | 15.2 µg/mL
CCC1CCCC(CC)C(=O)NCCCC(CC)C(OC2OC(C)C(O)C(N)C2OC2OC(CO)C(O)C(O)C2O)CC1 | 12 strains | 32 µg/mL
Fc1ccc(C(c2ccc3ccccc3c2)n2ccnc2)cc1 | 23 strains | 10.36 µg/mL
Cc1c(C(=O)O)c(-c2ccc(F)cc2)cn1-c1ccc(F)cc1 | 40 strains | 41.67 µg/mL
Clc1ccccc1COc1ccc(C(c2ccc(-c3ccccc3)cc2)n2ccnc2)cc1.O=[N+]([O-])O | 16 strains | ≥256 µg/mL
O=C(Nc1ccc(Cn2ccnc2)cc1)c1ccc(Br)cc1 | 27 strains | 144 µg/mL
Fc1cccc(C(c2nccc3ccccc23)n2ccnc2)c1.O=[N+]([O-])O | 44 strains | 128.5 µg/mL
COc1ccc(C(c2cccc3ccccc23)n2ccnc2)cc1 | 23 strains | 18.28 µg/mL
Cc1c(CNc2ccccc2)cc(-c2ccccc2)n1-c1ccccc1 | 20 strains | >200 µg/mL
O=C(Nc1ccccc1Cn1ccnc1)c1ccccc1 | 27 strains | 166.6 µg/mL
c1ccc(C(c2ccc3ccccc3c2)n2ccnc2)cc1 | 23 strains | 4.6 µg/mL
CS(=O)(=O)OC[C@H]1CO[C@](Cn2ccnc2)(c2ccc(-c3ccccc3)cc2)O1 | 44 strains | >256 µg/mL
COc1ccc(C(c2ccc3ccccc3c2)n2ccnc2)cc1 | 23 strains | 23 µg/mL
Cc1c(CNc2ccccc2)cc(-c2ccc(Cl)cc2)n1-c1ccc(Cl)cc1 | 20 strains | >200 µg/mL
Cn1cc(-c2ccccc2)c(C(c2ccc(-c3ccccc3)cc2)n2ccnc2)c1 | 33 strains | 173 µg/mL
Cc1cc(CN2CCN(C)CC2)c(C)n1-c1ccc(Cl)cc1Cl | 20 strains | 155 µg/mL
c1ccc2c(C(c3ccc(-n4cccc4)cc3)n3ccnc3)cccc2c1 | 23 strains | 2.76 µg/mL

The last 6 rows once more:

compound	strain	value
CS(=O)(=O)OC[C@H]1CO[C@](Cn2ccnc2)(c2ccc(-c3ccccc3)cc2)O1	44 strains	>256 µg/mL
COc1ccc(C(c2ccc3ccccc3c2)n2ccnc2)cc1	23 strains	23 µg/mL
Cc1c(CNc2ccccc2)cc(-c2ccc(Cl)cc2)n1-c1ccc(Cl)cc1	20 strains	>200 µg/mL
Cn1cc(-c2ccccc2)c(C(c2ccc(-c3ccccc3)cc2)n2ccnc2)c1	33 strains	173 µg/mL
Cc1cc(CN2CCN(C)CC2)c(C)n1-c1ccc(Cl)cc1Cl	20 strains	155 µg/mL
c1ccc2c(C(c3ccc(-n4cccc4)cc3)n3ccnc3)cccc2c1	23 strains	2.76 µg/mL